Results deposited as PubChem BioAssay AID624099 (ICCB-Longwood, 2012).
In all, the deposit lists about 21,000 reagents; this is a random part of them. In the full data, 497 (2.4%) are marked active. 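Higher z means weaker E2 silencing; only reporter increases were scored, and knock-downs that hurt cell survival may mask genuine repressor factors.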 Reagents against one gene are numbered here.

- Test: 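Knock-downs relieving repression by E2 of an HPV18 LCR luciferase reporter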 (primary screen)
- Cells: human C33A cervical carcinoma cells (HPV-negative) stably expressing BPV1 E2 and an HPV18 LCR luciferase reporter
- Reagent: siRNA pool against human genes, 40 nM
- Time to read-out: 72 h
- Read-out: 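Per-well luciferase luminescence, z-scored on each plate against the plate mean and SD with control wells left out, then averaged across three replicate plates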
- Reading the numbers: mean z-score and z-score: higher = stronger reporter signal, weaker E2 silencing
- Call rule: 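Hit if mean z-score reaches 2 and two or more of three replicate z-scores also reach 2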

gene knocked down | reagent | mean z-score | z-score, replicate A | z-score, replicate B | z-score, replicate C | outcome
OTX1 | 1 | 0.79 | 0.84 | 0.81 | 0.72 | inactive
TAPT1-AS1 | 1 | -0.76 | -0.4 | -1.12 | -0.75 | inactive
LINC01270 | 1 | -0.54 | -0.72 | -0.36 | -0.56 | inactive
PLXNA4 | 1 | -1.66 | -1.4 | -1.67 | -1.92 | inactive
PLXNA4 | 2 | 1.42 | 0.93 | 1.48 | 1.86 | inactive
DHX16 | 1 | 0.38 | 0.62 | 0.24 | 0.27 | inactive
NDUFS2 | 1 | -0.39 | -0.71 | 0.04 | -0.5 | inactive
LRRC37A11P | 1 | -0.24 | -0.38 | -0.11 | -0.22 | inactive
QNG1 | 1 | 0.94 | 0.58 | 1.04 | 1.19 | inactive
LOC392177 (retired record) | 1 | -0.78 | -1.03 | -0.7 | -0.61 | inactive
EMX1 | 1 | 0.53 | 0.64 | 0.34 | 0.63 | inactive
SOWAHC | 1 | 1.55 | 1.66 | 1.75 | 1.23 | inactive
DSPP | 1 | -0.51 | -0.51 | -0.65 | -0.38 | inactive
QPCTL | 1 | -1.11 | -1.11 | -1.07 | -1.14 | inactive
TMOD1 | 1 | 0.84 | 1 | 0.8 | 0.73 | inactive
CFAP276 | 1 | -1.01 | -1.25 | -1.09 | -0.69 | inactive
CFAP276 | 2 | -0.72 | -0.34 | -0.91 | -0.91 | inactive
GCC2 | 1 | -0.7 | -0.77 | -0.75 | -0.58 | inactive
LOC389143 (retired record) | 1 | 0.03 | 0.61 | -0.17 | -0.34 | inactive
DNAAF9 | 1 | -0.77 | -1.12 | -0.56 | -0.61 | inactive
RGP1 | 1 | 0.91 | 0.92 | 0.67 | 1.14 | inactive
NKAIN3 | 1 | 0.69 | 0.75 | 0.95 | 0.37 | inactive
FBLIM1 | 1 | 1.18 | 1.42 | 0.93 | 1.19 | inactive

Not a retest: 3 of the entries above.
gene knocked down | reagent | mean z-score | z-score, replicate A | z-score, replicate B | z-score, replicate C | outcome
SOWAHC | 1 | 1.55 | 1.66 | 1.75 | 1.23 | inactive
DSPP | 1 | -0.51 | -0.51 | -0.65 | -0.38 | inactive
QPCTL | 1 | -1.11 | -1.11 | -1.07 | -1.14 | inactive
